From patent US7625917B2, “Thiolesters and uses thereof” (priority 1998, dated 2009)

What follows are compounds tested on HIV-1RF (assay: XTT cytoprotection assay (antiviral activity)). Conditions: Table 1; in vitro therapeutic index (IC50/EC50).
Type: cell-based
Excerpt: One exemplary means to determine antiviral activity is with CEM-SS cells and virus (e.g., HIV-1RF) (MOI=0.01) using the XTT (2,3-bis[2-methoxy-4-nitro-5-sulfophenyl]-5-[(phenylamino)carbonyl]-2H-tetrazolium hydroxide) cytoprotection assay, as described by Rice (1993) PNAS 90:9721-9724, and Rice (1997) Antimicrob. Agents Chemother. 41:419-426. Briefly, cells are infected with HIV-1 RF (or other virus to be tested) in the presence of various dilutions of test compounds (thiolesters and controls). The cultures are incubated for seven days. During this time control cultures without protective compounds (i.e., compounds with anti-viral activity) replicate virus, induce syncytia, and result in about 90% cell death. The cell death is measured by XTT dye reduction. XTT is a soluble tetrazolium dye that measures mitochondrial energy output, similar to MTT. Positive controls using dextran sulfate (an attachment inhibitor) or 3′-Azido-2′-3′-dideoxythymidine, AZT (a reverse transcriptase inhibitor) are added to each assay. Individual assays are done in duplicate using a sister plate method.
Effective antiviral concentrations providing 50% cytoprotection (EC50), and cellular growth inhibitory concentrations causing 50% cytotoxicity (IC50) are calculated.
Work on CC(=O)NS(=O)(=O)c1ccc(-n2sc3ccccc3c2=O)cc1 [Compound 2 BITA, N-[4-(3-oxo-3H-benz[d]isothiazol-2-yl)phenylsulfonyl] acetamide] yielded a TI of 2.7. For CC(=O)NS(=O)(=O)c1ccc(NC(=O)c2ccccc2SSc2ccccc2C(=O)Nc2ccc(S(=O)(=O)NC(C)=O)cc2)cc1 [Compound 2 D, N,N′-(2,2′-dithiodibenzoyl)-bis-sulfacetamide], the TI was > 133. For O=C(NS(=O)(=O)c1ccc(-n2sc3ccccc3c2=O)cc1)c1ccccc1 [Compound 3 BITA], the TI was 5.3. O=C(NS(=O)(=O)c1ccc(NC(=O)c2ccccc2SSc2ccccc2C(=O)Nc2ccc(S(=O)(=O)NC(=O)c3ccccc3)cc2)cc1)c1ccccc1 [Compound 3 D] showed a TI of 14.2. With O=c1c2ccccc2sn1-c1ccc(S(=O)(=O)Nc2ccc(Cl)nn2)cc1 [Compound 4 BITA] the TI was 2.7. With O=C(Nc1ccc(S(=O)(=O)Nc2ccc(Cl)nn2)cc1)c1ccccc1SSc1ccccc1C(=O)Nc1ccc(S(=O)(=O)Nc2ccc(Cl)nn2)cc1 [Compound 4 D] the TI was 6.3. O=c1c2ccccc2sn1-c1ccc(S(=O)(=O)Nc2ncccn2)cc1 [Compound 5 BITA] showed a TI of 7.8. O=C(Nc1ccc(S(=O)(=O)Nc2ncccn2)cc1)c1ccccc1SSc1ccccc1C(=O)Nc1ccc(S(=O)(=O)Nc2ncccn2)cc1 [Compound 5 D] gave a TI of 23.2. Compound COc1cc(NS(=O)(=O)c2ccc(-n3sc4ccccc4c3=O)cc2)nc(OC)n1 [Compound 6 BITA] has a TI of 7.4. COc1cc(NS(=O)(=O)c2ccc(NC(=O)c3ccccc3SSc3ccccc3C(=O)Nc3ccc(S(=O)(=O)Nc4cc(OC)nc(OC)n4)cc3)cc2)nc(OC)n1 [Compound 6 D] was tested, and the TI was 25. For COc1ccnc(NS(=O)(=O)c2ccc(-n3sc4ccccc4c3=O)cc2)n1 [Compound 7 BITA], the TI was 6.5. Work on COc1ccnc(NS(=O)(=O)c2ccc(NC(=O)c3ccccc3SSc3ccccc3C(=O)Nc3ccc(S(=O)(=O)Nc4nccc(OC)n4)cc3)cc2)n1 [Compound 7 D] yielded a TI of 13.5. Work on COc1cnc(NS(=O)(=O)c2ccc(-n3sc4ccccc4c3=O)cc2)nc1 [Compound 8 BITA] yielded a TI of 3.3. COc1cnc(NS(=O)(=O)c2ccc(NC(=O)c3ccccc3SSc3ccccc3C(=O)Nc3ccc(S(=O)(=O)Nc4ncc(OC)cn4)cc3)cc2)nc1 [Compound 8 D] showed a TI of 26.2. For Cc1cc(C)nc(NS(=O)(=O)c2ccc(-n3sc4ccccc4c3=O)cc2)n1 [Compound 9 BITA], the TI was 2.5. Compound Cc1cc(C)nc(NS(=O)(=O)c2ccc(NC(=O)c3ccccc3SSc3ccccc3C(=O)Nc3ccc(S(=O)(=O)Nc4nc(C)cc(C)n4)cc3)cc2)n1 [Compound 9 D] has a TI of 20.1. Work on COc1ccc(NS(=O)(=O)c2ccc(-n3sc4ccccc4c3=O)cc2)nn1 [Compound 12 BITA] yielded a TI of 2.4. COc1ccc(NS(=O)(=O)c2ccc(NC(=O)c3ccccc3SSc3ccccc3C(=O)Nc3ccc(S(=O)(=O)Nc4ccc(OC)nn4)cc3)cc2)nn1 [Compound 12 D] showed a TI of 12.8. With O=c1c2ccccc2sn1-c1ccc(S(=O)(=O)Nc2cnc3ccccc3n2)cc1 [Compound 17 BITA] the TI was 5.9. Compound O=C(Nc1ccc(S(=O)(=O)Nc2cnc3ccccc3n2)cc1)c1ccccc1SSc1ccccc1C(=O)Nc1ccc(S(=O)(=O)Nc2cnc3ccccc3n2)cc1 [Compound 17 D] has a TI of 30.8. For Cc1cc(NS(=O)(=O)c2ccc(-n3sc4ccccc4c3=O)cc2)nc(C)n1 [Compound 19 BITA], the TI was 6.1. Cc1cc(NS(=O)(=O)c2ccc(NC(=O)c3ccccc3SSc3ccccc3C(=O)Nc3ccc(S(=O)(=O)Nc4cc(C)nc(C)n4)cc3)cc2)nc(C)n1 [Compound 19 D] showed a TI of 9.6. Cc1noc(NS(=O)(=O)c2ccc(-n3sc4ccccc4c3=O)cc2)c1C [Compound 20 BITA] showed a TI of 3.0. Cc1noc(NS(=O)(=O)c2ccc(NC(=O)c3ccccc3SSc3ccccc3C(=O)Nc3ccc(S(=O)(=O)Nc4onc(C)c4C)cc3)cc2)c1C [Compound 20 D] showed a TI of 17.7. With NC(N)=NS(=O)(=O)c1ccc(NC(=O)c2ccccc2SSc2ccccc2C(=O)Nc2ccc(S(=O)(=O)N=C(N)N)cc2)cc1 [Compound 21 D] the TI was >2.8. Work on NS(=O)(=O)c1ccc(NS(=O)(=O)c2ccc(-n3sc4ccccc4c3=O)cc2)cc1 [Compound 22 BITA] yielded a TI of 2.9. For NS(=O)(=O)c1ccc(NS(=O)(=O)c2ccc(NC(=O)c3ccccc3SSc3ccccc3C(=O)Nc3ccc(S(=O)(=O)Nc4ccc(S(N)(=O)=O)cc4)cc3)cc2)cc1 [Compound 22 D], the TI was 18.7.

Same assay, conditions: Table 2; IC50/EC50
Work on NS(=O)(=O)c1ccc(Cn2sc3ccccc3c2=O)cc1 [Compound 23 BITA] yielded a TI of 3.9. For NS(=O)(=O)c1ccc(CNC(=O)c2ccccc2SSc2ccccc2C(=O)NCc2ccc(S(N)(=O)=O)cc2)cc1 [Compound 23 D, N,N′-(2,2′-dithiodibenzoyl)-bis-4-(aminomethyl)benzene-sulfonanide], the TI was 58.8. Compound NS(=O)(=O)c1ccc(CCn2sc3ccccc3c2=O)cc1 [Compound 24 BITA] has a TI of 22.7. Compound NS(=O)(=O)c1ccc(CCNC(=O)c2ccccc2SSc2ccccc2C(=O)NCCc2ccc(S(N)(=O)=O)cc2)cc1 [Compound 24 D, N,N′-(2,2′-dithiodibenzoyl)-bis-4-(2-aminoethyl)benzene-sulfonamide] has a TI of 139. Work on NS(=O)(=O)c1ccc(NC(=O)CNC(=O)c2ccccc2SSc2ccccc2C(=O)NCC(=O)Nc2ccc(S(N)(=O)=O)cc2)cc1 [Compound 25 D, N,N′-(2,2′-dithiodibenzoyl)-bis-4-(glycinamido)benzenesulfonamide] yielded a TI of 11.

Same assay, conditions: Table 3; IC50/EC50
In the case of Nc1ccc(S(=O)(=O)c2ccc(NC(=O)c3ccccc3SSc3ccccc3C(=O)Nc3ccc(S(=O)(=O)c4ccc(N)cc4)cc3)cc2)cc1 [Compound 26 D], the TI is reported as >73.5. Work on CC(=O)Nc1ccc(S(=O)(=O)c2ccc(NC(=O)c3ccccc3SSc3ccccc3C(=O)Nc3ccc(S(=O)(=O)c4ccc(NC(C)=O)cc4)cc3)cc2)cc1 [Compound 27 D] yielded a TI of 106.7. Compound CC(=O)Nc1ccc(S(=O)(=O)Nc2ccc(S(=O)(=O)c3ccc(-n4sc5ccccc5c4=O)cc3)cc2)cc1 [Compound 28 BITA] has a TI of 19.6. Work on CC(=O)Nc1ccc(S(=O)(=O)Nc2ccc(S(=O)(=O)c3ccc(NC(=O)c4ccccc4SSc4ccccc4C(=O)Nc4ccc(S(=O)(=O)c5ccc(NS(=O)(=O)c6ccc(NC(C)=O)cc6)cc5)cc4)cc3)cc2)cc1 [Compound 28 D] yielded a TI of 12.7. In the case of O=C(Nc1ccc(S(=O)(=O)c2ccc([N+](=O)[O-])cc2)cc1)c1ccccc1SSc1ccccc1C(=O)Nc1ccc(S(=O)(=O)c2ccc([N+](=O)[O-])cc2)cc1 [Compound 31 D], the TI is reported as >26. O=C(Nc1ccc(S(=O)(=O)c2ccc(NC(=O)c3ccccc3SSc3ccccc3C(=O)Nc3ccc(S(=O)(=O)c4ccc(NC(=O)c5ccc([N+](=O)[O-])cc5)cc4)cc3)cc2)cc1)c1ccc([N+](=O)[O-])cc1 [Compound 32 D] was tested, and the TI was >4. In the case of O=c1c2ccccc2sn1-c1ccc(S(=O)(=O)c2ccc(NS(=O)(=O)Cc3ccccc3[N+](=O)[O-])cc2)cc1 [Compound 34 BITA], the TI is reported as 15.1. With O=C(Nc1ccc(S(=O)(=O)c2ccc(NS(=O)(=O)Cc3ccccc3[N+](=O)[O-])cc2)cc1)c1ccccc1SSc1ccccc1C(=O)Nc1ccc(S(=O)(=O)c2ccc(NS(=O)(=O)Cc3ccccc3[N+](=O)[O-])cc2)cc1 [Compound 34 D] the TI was > 25.7.
